The source of these data is paper PMC11623273, “Epitope-focused immunogens targeting the hepatitis C virus glycoproteins induce broadly neutralizing antibodies” (Science Advances, 2024).

The target of this assay is T1, E2_S2_1 (design 2K6Z_01), epitope scaffold presenting HCV E2 epitope I.
T1 chain: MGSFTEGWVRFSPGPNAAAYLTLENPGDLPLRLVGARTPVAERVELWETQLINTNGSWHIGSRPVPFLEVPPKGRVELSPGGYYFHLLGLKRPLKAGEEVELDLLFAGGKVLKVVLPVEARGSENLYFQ

B1: N08 (antibody, V domains shown)
VH: QVQLVESGGGVVQPGRSLRLSCAASGFTFSSYDMHWVRQAPGKGLEWMAVICFDGANTYYADSVKGRFTISRDNSKNTLYLQMNSLRAEDTAVYYCALGARNYFYYGMDVWGQGTTVTVSS
VL: DIQMTQSPSSLSASVGDRVTITCRASQGIRNDLGWYQQKPGKAPKRLIYAASSLQSGVPSRFSGSGSGTEFTLTISSLQPEDSATYYCLKHNSYPWTFGQGTKVEIK
For B1, the binding result is “binds”.
